The results in this text go back to patent US20120107933A1 (GOVERNMENT OF THE UNITED STATES AS REPRESENTED BY THE …, published 2012).

This assay has as its target human mesothelin on the cell surface (A431/H9 transfectants and human cancer cell lines) (human) (UniProt Q13421). The assay is described as follows: cell-based or functional assay.

Regarding “HN2 scFv immunotoxin (HN2 scFv fused to PE38) (from UniProt P11439 278-389; P11439 406-638)”, the Cytotoxic Assays (WST), IC50 of cell viability, H226 cells is 0.08 µg/mL.
